Test results taken from patent US20060127411A1 (priority 2002, published 2006).

Tests used:
[1] = system: peripheral blood lymphocytes (PBMC)
[2] = system: peripheral blood lymphocytes (PBMC); test: Intracellular IFNγ and IL-4 production after SEB stimulation (flow cytometry); type: cell-based, human; settings: SEB stimulated
[3] = system: peripheral blood lymphocytes from patients with severe psoriasis vulgaris; test: Spontaneous cytokine secretion, cytometric bead array, patients with psoriasis vulgaris; settings: patients with psoriasis vulgaris (n=3), 200 μg/10^6 cells, 2 days (FIG. 10)
[4] = system: peripheral blood lymphocytes of healthy candidates; test: Spontaneous cytokine secretion, cytometric bead array, healthy candidates; settings: healthy candidates (n=3), 200 μg/10^6 cells, 2 days (FIG. 8)

With QELDYLTRH the “Effect on SEB-induced proliferation” value ([1]; co-stimulation with SEB+peptide (FIG. 6B)) was “modified substantially neither by the peptides alone (FIG. 6A) nor the co-stimulation with SEB+peptide P1”, the “Inhibition of the SEB-induced lymphocyte proliferation” value ([1]; dose-effect curve 10-200 μg peptide, high concentrations (FIG. 6B)) was “occurred only in high concentrations” and the “Effect on proliferation of lymphocytes” value ([1]; peptides alone, different concentrations, 2 days, healthy donors (FIG. 6A)) was “did not bring to light any significant effects”. The “Ratio between IFNγ and IL-4 (IFNγ+ Th1 cells to IL-4+ Th2 cells)” value ([2]; healthy candidates (FIG. 7C)) was “modified by the peptides as a function of the dosage in favour of the IL-4 producing Th2 lymphocytes”, the “Intracellular IFNγ production” value ([2]; lymphocytes of healthy candidates, different peptide concentrations (FIG. 7A)) was “suppresses the production of IFNγ, a cytokine which mediates a number of immunological functions, more strongly than P2 as a function of the dosage” and the “Intracellular IL-4 production” value ([2]; lymphocytes of healthy candidates, different peptide concentrations (FIG. 7B)) was “is stimulated as a function of the dosage”. The IL-5 synthesis [3] was “substantial stimulation of the IL-10 and IL-5 synthesis”, the IL-10 synthesis [3] was “substantial stimulation of the IL-10 and IL-5 synthesis” and the “Spontaneous production of IFNγ” value [4] was “inhibits above all the spontaneous production of the Th1 cytokines IL-2 and IFNγ”. For the same sequence, the “Spontaneous production of IL-2” value [4] was “inhibits above all the spontaneous production of the Th1 cytokines IL-2 and IFNγ”, the “Synthesis of IL-4” value [4] was “completely inhibits also the synthesis of IL-4 and IL-5” and the “Synthesis of IL-5” value [4] was “completely inhibits also the synthesis of IL-4 and IL-5”.
In the case of QEEDFLTLH, the “Spontaneous production of TNFα” value [4] is reported as “inhibits TNFα more strongly”, the “Synthesis of IL-4” value [4] is reported as “induces the synthesis of Th2 cytokines (IL-4, IL-5, IL-10)” and the “Synthesis of IL-5” value [4] is reported as “induces the synthesis of Th2 cytokines (IL-4, IL-5, IL-10)”. For the same sequence, the “Synthesis of IL-10” value [4] was “induces the synthesis of Th2 cytokines (IL-4, IL-5, IL-10)”.
